Compound potency records, mixed from different reports. Data source: NIAID ChemDB in PubChem.

All rows: tests on isolated targets; agent: HIV-1; protein: Integrase; endpoint: IC50

Neighbouring rows are from separate reports.

structure	read by	mutations	value
Clc1nc(Cl)c2c(n1)Oc1nc(Cl)nc(Cl)c1C2c1ccccc1	3′ processing		74 µM
Cc1ccc(S(=O)(=O)n2cc(C(C(=O)O)C(=O)O)c3cc(NC(=O)c4cc(F)c(F)c(F)c4)ccc32)cc1	strand transfer / fluorescence	Y143R	>25 µM
C/C(=N/NC1=NCCN1)c1cn(C2=NCCN2)nc1C	3′ processing		>250 µM
COc1cc(C(=O)Oc2c(-c3ccc(Cl)cc3)oc3ccccc3c2=O)cc(OC)c1O	3′ processing		>100 µM
CCOc1nc2cccc(C(=O)O)c2n1Cc1ccc(-c2ccccc2-c2nn[nH]n2)cc1	AlphaScreen		11.36 µM
COc1c(O)cc2c(c1O)[C@@H]1O[C@H](CO)[C@@H](O)[C@H](O)[C@H]1OC2=O	3′ processing		>100 µM
O=C(NCc1ccc(F)cc1)c1nc(N2CCCCS2(=O)=O)c2cccnc2c1O	strand transfer		0.008 µM
CNS(=O)(=O)OC1C2OC([C@@H](C)C(C)C)C[C@@H](C)[C@@H]2[C@@]2(C)CC[C@H]3[C@@H]([C@@H](OS(=O)(=O)O)[C@@H](O)[C@H]4[C@@H](O)[C@H](OS(=O)(=O)O)CC[C@@]43C)[C@H]12			15 µg/mL
C[C@@H]1O[C@@H](Oc2c(-c3cc(O)c(O)c(O)c3)oc3cc(O)cc(O)c3c2=O)[C@H](O)[C@H](O)[C@H]1O	3′ processing		39.81 µM
Cn1c(=O)c2cc3c(=O)n(C)c(=O)n(C)c3nc2n(C)c1=O	3′ processing		>250 µM
O=c1[nH]c2c(c(=O)[nH]1)C(c1ccccc1)c1c([nH]c(=O)[nH]c1=O)O2	3′ processing		22.4 µM
Cc1ccccc1-c1cccc2c(-c3ccc4c(c3)OCCO4)c(C(OC(C)(C)C)C(=O)O)c(C)nc12	strand transfer / fluorescence		0.09 µM
O=c1cc(-c2ccc(O)c(O)c2)oc2c(O)c(O)c(O)c(O)c12	3′ processing		0.79 µM
CCOC(=O)C(C(=O)OCC)c1cn(Cc2cc(F)ccc2F)c2ccc(F)cc12	strand transfer / fluorescence	G140S	25.4 µM
O=C(O)C(=O)/C=C(\O)c1ccc2ccccc2c1	strand transfer		>100 µM
C[C@@](Cc1ccc(O)c(O)c1)(NN)C(=O)O	AlphaScreen		6.54 µM
COC(=O)c1ccc2cc(/C=C/c3ccc(O)cc3)oc2c1O	3′ processing		>>100 µM
COC(=O)C(=O)/C=C(\O)c1ccc(O)c(O)c1	3′ processing		>100 µM
COc1cc2c(cc1OC)C13CC(=O)N(C(C)=O)N1CCCN3C2=O	3′ processing		>250 µM
COC(=O)C1C(=O)N(O)C(=O)c2ccccc21	strand transfer		4.9 µM
O=C1N[C@@H]2C(=C[C@H](O)[C@@H](O)[C@H]2O)c2cc3c(c(O)c21)OCO3	3′ processing		>250 µM
CCOC(=O)C(C(=O)OCC)c1cn(S(=O)(=O)c2ccc(C)cc2)c2ccc(NC(=O)c3ccc(OC)cc3)cc12	strand transfer / fluorescence	Y143R	>25 µM
O=C1c2c(O)c(=O)n(C3CCCCN(Cc4ccccc4)C3=O)c(=O)n2CCN1Cc1ccc(F)cc1	strand transfer		<10 µM
Cc1ccc(S(=O)(=O)n2cc(C(=O)/C=C3\OC(C)(C)OC3=O)c3cc(Br)ccc32)cc1	strand transfer / fluorescence	Y143R	5 µM
C[C@@H]1O[C@@H](Oc2c(-c3ccc(O)c(O)c3)oc3cc(O)cc(O)c3c2=O)[C@H](O)[C@H](O)[C@H]1O	3′ processing		60.26 µM
O=C(O)C(=O)/C=C(\O)c1ccccc1	strand transfer		>100 µM
CC(=O)c1cc(S(=O)(=O)c2ccc(O)c(C(C)=O)c2)ccc1O	3′ processing		>100 µM
Cc1[nH]cnc1C(=O)NNC1=Nc2ccc(Br)cc2C(c2ccccc2Cl)=NC1	substrate cleavage		2 µM
O=C1c2c(O)c(=O)n(-c3ccc(N4CCOCC4)cc3)c(=O)n2CCN1Cc1ccc(F)cc1	strand transfer		<10 µM
Cc1cc(C)cc(Cn2cc(C(=O)CC(O)C(=O)O)c3c(O)cccc32)c1	AlphaScreen		3.5 µM
O=C1C(=O)c2ccccc2C(O)=C1C(CCc1ccccc1)C1=C(O)c2ccccc2C(=O)C1=O	3′ processing		>100 µM
O=c1c(O)c(-c2ccc(O)cc2)oc2cc(O)cc(O)c12	3′ processing		97.72 µM
CCOP(=O)(CCNC(=O)c1c(O)c2ncc(Cc3ccc(F)cc3)cc2n(C)c1=O)NCCOC	strand transfer		<0.1 µM
COc1cc(/C=C/C(=O)CC(=O)/C=C/c2ccc(O)c(OC)c2)ccc1O	3′ processing		~100 µM
CCOC(=O)C(C(=O)OCC)c1cn(S(=O)(=O)c2ccc(C)cc2)c2ccc(NC(=O)c3cccc(C)c3O)cc12	strand transfer / fluorescence		20.3 µM
COc1c(O)cc2c(=O)oc3c(O)c(O)cc4c(=O)oc1c2c34	strand transfer / absorbance		>100 µg/mL
CCOP(=O)(O)CNC(=O)c1c(O)c2ncc(Cc3ccc(F)cc3)cc2n(C)c1=O	strand transfer		<0.1 µM
O=c1c(O)c(-c2ccc(Cl)cc2)oc2ccccc12	3′ processing		>100 µM
O=C(O)c1cc(-c2cn(Cc3ccc(F)cc3)cc2-c2ccccc2)n[nH]1	3′ processing		>333 µM
COC(=O)c1nc(=S)[nH]c(C(=O)OC)c1C(=O)c1ccc(O)c(OC)c1	3′ processing		238 µM
CN1C(=O)C(=O)/C(=C(\O)c2ccccc2)C1c1cccc(Cl)c1	strand transfer		>100 µM
CCCCCCCNC1=C(O)c2ccccc2C(=O)C1=O	3′ processing		>100 µM
CC1(C)OC(=O)/C(=C/C(=O)c2cn(Cc3cc(F)ccc3F)c3ccc(F)cc23)O1	strand transfer / fluorescence	Y143R	16.4 µM
COc1cc(/C=C/C(=O)Oc2c(-c3ccc(Cl)cc3)oc3ccccc3c2=O)ccc1O	3′ processing		>100 µM
CCOc1ccc(C(C2=C(O)c3ccccc3C(=O)C2=O)C2=C(O)c3ccccc3C(=O)C2=O)cc1OC	strand transfer		>100 µM
COc1ccc(-c2cc(=O)c3c(O)cc(O)cc3o2)cc1Oc1ccc(-c2cc(=O)c3c(O)cc(O)cc3o2)cc1	3′ processing		>250 µM
CCCCCCCCCCCCCCCCOC(=O)C(CCSC)NCNc1ccc(S(=O)(=O)c2ccc(NCNC(CCSC)C(=O)OCCCCCCCCCCCCCCCC)cc2)cc1	strand transfer		>100 µM
Cc1ccc(S(=O)(=O)n2cc(/C(O)=C/C(=O)C(=O)O)c3cc(F)ccc32)cc1	strand transfer / fluorescence	Y143R	9.8 µM
Cc1cn([C@H]2C[C@@H]3OP(=O)(O)OC[C@H]4O[C@@H](n5cnc6c(=O)[nH]c(N)nc65)C[C@@H]4OP(=O)(O)OC[C@H]3O2)c(=O)[nH]c1=O	3′ processing		>1000 µM
COc1c(O)cc2oc(-c3ccc(O)c(O)c3)cc(=O)c2c1O	3′ processing		93.33 µM
COC(=O)c1ccc2cc(/C=C/c3ccc(O)c(O)c3)oc2c1O	3′ processing		42.9 µM
O=[N+]([O-])c1cccc(S(=O)(=O)c2ccc(F)c([N+](=O)[O-])c2)c1	3′ processing		>100 µM
O=C1c2c(O)c(=O)n(CCc3cn4ccccc4n3)c(=O)n2CCN1Cc1ccc(F)cc1	strand transfer		<10 µM
CCOC(=O)CC(=O)c1cccn1Cc1ccc(F)cc1	binding		>100 µM
CCOP(=O)(O)CNC(=O)c1c(O)c2ncc(Cc3ccc(F)cc3)cc2n(CCN2CCCC2=O)c1=O	strand transfer		<0.1 µM
CCOC(=O)C(C(=O)OCC)c1cn(S(=O)(=O)c2ccc(C)cc2)c2ccc(NC(=O)c3ccc(F)cc3Cl)cc12	strand transfer / fluorescence	G140S	>25 µM
CCOP(=O)(O)CCCNC(=O)c1c(O)c2ncc(Cc3ccc(F)cc3)cc2n(C)c1=O	strand transfer		<0.1 µM
O=C1c2c(O)c(=O)n(C3CCC3)c(=O)n2CCN1Cc1ccc(F)cc1	strand transfer		<10 µM
CCCCNc1cc(C(=O)O)cc(S(N)(=O)=O)c1Oc1ccccc1	AlphaScreen		13.53 µM
CCCCOC(=O)C(=O)CC(=O)c1cccn1Cc1ccc(F)cc1	strand transfer		>100 µM
O=C(/C=C/c1ccc(O)c2c1[C@H](C(=O)O[C@H](Cc1ccc(O)c(O)c1)C(=O)O)[C@@H](c1ccc(O)c(O)c1)O2)O[C@H](Cc1ccc(O)c(O)c1)C(=O)O	3′ processing		0.48 µM
COc1nc(=O)[nH]c2c1C(c1ccc([N+](=O)[O-])cc1)c1c(OC)nc(=O)[nH]c1O2	3′ processing		>250 µM
O=C(O)c1ccc2cc(/C=C/c3ccc(O)c(O)c3)oc2c1O	3′ processing		44.01 µM
CC(=O)Oc1ccc(/C=C/C(=O)Oc2c(-c3ccc(Cl)cc3)oc3ccccc3c2=O)cc1OC(C)=O	3′ processing		>100 µM
O=[N+]([O-])c1cc(S(=O)(=O)c2ccc(N(CCO)CCO)c([N+](=O)[O-])c2)ccc1N(CCO)CCO	strand transfer		>100 µM
O=C1Sc2cc3ccccc3cc2C(=O)N2CSCC12	3′ processing		92 µM
COC(=O)c1ccc2cc(/C=C/c3ccc(OC)cc3)oc2c1OC	3′ processing		>>100 µM
O=C=Nc1cccc(S(=O)(=O)c2cccc(N=C=O)c2)c1	strand transfer		90 µM
O=C(/C=C/c1ccc(O)c2c1[C@H](C(=O)O)[C@@H](c1ccc(O)c(O)c1)O2)O[C@H](Cc1ccc(O)c(O)c1)C(=O)O			1.4 µM
O=[N+]([O-])c1ccc(S(=O)(=O)c2ccc([N+](=O)[O-])cc2C(F)(F)F)c(C(F)(F)F)c1	strand transfer		>100 µM
COc1ccccc1/C(O)=C/C(=O)C(=O)O	strand transfer		>100 µM
CCOP(=O)(O)CCNC(=O)c1c(O)c2ncc(Cc3ccc(F)cc3)cc2n(C)c1=O	strand transfer		<0.1 µM
O=CCc1c(-c2ccccc2)c2cc(Cl)ccc2[nH]c1=O	AlphaScreen		12 µM
COC(=O)c1ccc2cc(/C=C/c3ccc(O)cc3)oc2c1OC	3′ processing		>>100 µM
O=C1c2c(O)c(=O)n(CC(c3ccncc3)N3CCOCC3)c(=O)n2CCN1Cc1ccc(F)cc1	strand transfer		<10 µM
O=C(/C=C/c1ccc(O)c(O)c1)O[C@@H]1CC(O)(C(=O)O)C[C@@H](OC(=O)/C=C/c2ccc(O)c(O)c2)C1O	3′ processing		0.64 µM
O=C(O)C(=O)/C=C(\O)c1ccccc1O	strand transfer		>100 µM
O=c1[nH]c2c(c(=O)[nH]1)C(c1ccc(I)cc1)c1c([nH]c(=O)[nH]c1=O)O2	3′ processing		>206.6 µM
CC[C@@]1(O)C(=O)OCc2c1cc1n(c2=O)Cc2cc3ccccc3nc2-1	3′ processing		>100 µM
CCOP(=O)(CCNC(=O)c1c(O)c2ncc(Cc3ccc(F)cc3)cc2n(C)c1=O)OCC	strand transfer		<0.1 µM
CCCCc1[nH]cc(CC(Cc2cccs2)C(=O)O)[n+]1Cc1ccc(C(=O)O)cc1	AlphaScreen		36.85 µM

7 of the rows above, restated:

structure | read by | mutations | value
CCOC(=O)C(C(=O)OCC)c1cn(S(=O)(=O)c2ccc(C)cc2)c2ccc(NC(=O)c3ccc(F)cc3Cl)cc12 | strand transfer / fluorescence | G140S | >25 µM
CCCCCCCNC1=C(O)c2ccccc2C(=O)C1=O | 3′ processing |  | >100 µM
Cc1cc(C)cc(Cn2cc(C(=O)CC(O)C(=O)O)c3c(O)cccc32)c1 | AlphaScreen |  | 3.5 µM
O=c1[nH]c2c(c(=O)[nH]1)C(c1ccc(I)cc1)c1c([nH]c(=O)[nH]c1=O)O2 | 3′ processing |  | >206.6 µM
O=C(/C=C/c1ccc(O)c2c1[C@H](C(=O)O)[C@@H](c1ccc(O)c(O)c1)O2)O[C@H](Cc1ccc(O)c(O)c1)C(=O)O |  |  | 1.4 µM
CCOC(=O)C(C(=O)OCC)c1cn(Cc2cc(F)ccc2F)c2ccc(F)cc12 | strand transfer / fluorescence | G140S | 25.4 µM
COc1cc(C(=O)Oc2c(-c3ccc(Cl)cc3)oc3ccccc3c2=O)cc(OC)c1O | 3′ processing |  | >100 µM

Blank or dashed fields: not listed here. ICn is the concentration giving n% inhibition.